Measured values reported in US20230303666A1, “Cell-free antibody engineering platform and neutralizing antibodies for sars-cov-2” (published 2023).
Numbering of substitutions follows the chain as printed. Where “and” joins values, the source holds several entries; their conditions need not be identical. Equal values may be shown once.

B1: SR1 (VHH, not shown: small tags and cut ends)
VHH: EVQLVESGGGLVQAGDSLRLSCAASGKTGRSVIMGWFRQAPDKEREFVATITRGDDTTNYADSVKGRFTISRDDARNTVYLQMNSLKPEDTAVYYCAAVYFVNDCIVDYWGQGTQVTVSS
B2: SR1t2 (VHH, not shown: small tags and cut ends)
VHH: B1 VHH with Q3R, Q13L
B3: SR8 (VHH, not shown: small tags and cut ends)
VHH: EVQLVESGGGLVQAGDSLRLSCAASGDYCMDCFMGWFRQAPGKEREFVAAITPYSFKTYYADSVKGRFTISRDDARNTVYLQMNSLKPEDTAVYYCAANPLDPNWTNSDYWGQGTQVTVSS
B4: SR8t5 (VHH, not shown: small tags and cut ends)
VHH: B3 VHH with S55G, I70F, K87R, N107H, W111R
B5: SR8c2 (VHH, not shown: small tags and cut ends)
VHH: B3 VHH with S55G, N107H
B6: SR2 (VHH, not shown: small tags and cut ends)
VHH: EVQLVESGGGLVQAGDSLRLSCAASGAFGSNVFMGWFRQAPGKEREFVASITPHHTVTDYADSVRGRFSISADSAKNTVYLQMNSLKPEDTAVYYCAAAIYRNASVLDYWGQGTQVTVSS
B7: SR2t9 (VHH, not shown: small tags and cut ends)
VHH: B6 VHH with E1Q, S25T, G29S, Q39L, T56A, S74T, S85A, R102C, S105T
B8: SR2c3 (VHH, not shown: small tags and cut ends)
VHH: B6 VHH with G29S, T56A, S105T
B9: SR2c4 (VHH, not shown: small tags and cut ends)
VHH: B6 VHH with G29S, T56A, R102C, S105T
B10: SR2f3 (VHH, not shown: small tags and cut ends)
VHH: B6 VHH with E1Q, Q39L, S74T
B11: SR2t5 (VHH, not shown: small tags and cut ends)
VHH: B6 VHH with E1Q, G29S, T56A, S74T, S105T
B12: SR6 (VHH, not shown: small tags and cut ends)
VHH: EVQLVESGGGLVQAGDSLRLSCAASGDCHVLWRMGWFRQAPGKEREFVAAISLDGLFTNYADSVRGRFSISADSAKNTVYLQMNSLKPEDTAVYYCAAMPFFDYWGQGTQVTVSS
B13: SR6c3 (VHH, not shown: small tags and cut ends)
VHH: B12 VHH with L56Q, M99L, F102L
B14: SR6t6 (VHH, not shown: small tags and cut ends)
VHH: B12 VHH with E1Q, E6V, L56Q, K76E, M99L, F102L
B15: SR6t9 (VHH, not shown: small tags and cut ends)
VHH: B12 VHH with E1Q, E6V, A23T, R45L, L56Q, T58A, K76E, M99L, F102L
B16: SR6t5 (VHH, not shown: small tags and cut ends)
VHH: B12 VHH with E1Q, E6V, L56Q, M99L, F102L
B17: SR6f3 (VHH, not shown: small tags and cut ends)
VHH: B12 VHH with E1Q, E6V, K76E
B18: SR6t4 (VHH, not shown: small tags and cut ends)
VHH: B12 VHH with E1Q, L56Q, M99L, F102L
B19: SR12 (VHH, not shown: small tags and cut ends)
VHH: EVQLVESGGGLVQAGDSLRLSCAASGAIVHVFAMGWFRQAPGKEREFVASINLDNDATNYADSVKGRFTISRDDARNTVYLQMNSLKPEDTAVYYCNATIFMDSDLGDYWGQGTQVTVSS
B20: SR12c3 (VHH, not shown: small tags and cut ends)
VHH: B19 VHH with A57V, M102T, D105G
B21: SR6t12 (VHH, not shown: small tags and cut ends)
VHH: QVQLVVSGGGLVRAGDSLRLSCTASGDCHVLWRMGWFRQASGKELEFVAAISLDGQFANYADSVRGRFSISADSAENTVYLQMNSLEPEDTAVYYCAALPFLDYWGQGTQVTVSS
B22: SR4t13 (VHH, not shown: small tags and cut ends)
VHH: KVQLVVTGRVLVQAGDSLRLSCVATGFQLSCYCVGWFRQAPGKELEFVASITQHAFRTYYADSVKGRFTISRDDAQNTVYLQMNSLEPEDTAVYYCAAAETPNILVHESYWGQGTQVTVSS
B23: SR4c1 (VHH, not shown: small tags and cut ends)
VHH: EVQLVESGGGLVQAGDSLRLSCAASGFQLSCYCMGWFRQAPGKEREFVASITQHAFRTYYADSVKGRFTISRDDARNTVYLQMNSLKPEDTAVYYCAAAETPNILVHENYWGQGTQVTVSS
B24: SR4t6 (VHH, not shown: small tags and cut ends)
VHH: B23 VHH with E6V, G9R, G10V, M34V, N109S
B25: SR4t9 (VHH, not shown: small tags and cut ends)
VHH: B22 VHH with T7S, V23A, Q76R, E87K
B26: SR4t4 (VHH, not shown: small tags and cut ends)
VHH: B23 VHH with E6V, G9R, M34V
B27: SR4f3 (VHH, not shown: small tags and cut ends)
VHH: B23 VHH with E6V, G9R, M34V, H107Y
B28: SR4t5 (VHH, not shown: small tags and cut ends)
VHH: B23 VHH with E6V, G9R, G10V, M34V
B29: SR4 (VHH, not shown: small tags and cut ends)
VHH: B23 VHH with H107Y
B30: SR12c5 (VHH)
VHH: B19 VHH with A57V, F101L, M102T, D103V, D105G
B31: SR12f3 (VHH)
VHH: B19 VHH with E1Q, E6V, Q112R

Target: SARS-CoV-2 S deleted of the 27 a.a. at the C-terminal and fused to the NRVRQGYS sequence of HIV-1, o (SARS-CoV-2), P0DTC2
Assay: cell-based or functional assay

Binder	Pseudovirus neutralization % inhibition, VHH 5 nM	Pseudovirus neutralization % inhibition, VHH 50 nM	Pseudovirus neutralization % inhibition, VHH 500 nM
B1	15.4% and 12.7%	17.1% and 13.8%	33% and 14%
B2	-1.91% and 10.2%	8.43% and 7.24%	20.3% and 13.4%
B3	14.3% and 8.81%	11.9% and 8.95%	24% and 16.3%
B4	-8.28% and -6.59%	-4.49% and -0.947%	1.59% and -3.29%
B5	4.55% and 1.42%	3.96% and 3.35%	12.1% and 10.3%
B6	1.43% and 4.23%	4.74% and 4.12%	31.7% and 19.5%
B7	12.4% and 12.1%	13.4% and 9.88%	23.5% and 20.8%
B8	0.636% and 4.85%	16.3% and 16.4%	67.8% and 59.4%
B9	14.3% and 2.66%	12.8% and 11.3%	49.5% and 38%
B10	2.59% and 0%	5.01% and 2.67%	6.02% and -0.622%
B11	2.7% and 13.9%	14.1% and 18.1%	61.2% and 52%
B12	13.2% and 9.55%	14.5% and 14.2%	31.9% and 19.4%
B13	27.8% and 24.3%	66.7% and 58.4%	86.3% and 75.5%
B14	4.24% and -1.26%	32.6% and 28.9%	69.2% and 62.1%
B15	24.6% and 11.2%	63.9% and 64.8%	90.3% and 82.3%
B16	12.1% and 8.81%	39.5% and 32.5%	65% and 61.3%
B17	11.5% and 8.65%	15.5% and 11.9%	21.4% and 19.3%
B18	20.1% and 17%	64.8% and 59.5%	84.2% and 77.8%
B19	1% and -0.472%	2.13% and -0.0778%	8.42% and 4.6%
B20	0.0771% and -2.52%	13.9% and 9.88%	51.7% and 36.8%
B21	16.6% and 3.93%	61% and 57.4%	86.4% and 80.3%
B22	13.8% and 4.07%	62.1% and 51%	95% and 92.5%
B23	-3.34% and 3.29%	8.59% and 11%	45.2% and 34.3%
B24	9.48% and 4.33%	47.7% and 31.8%	73.5% and 66.4%
B25	12.1% and 6.93%	77.5% and 73.5%	94.1% and 91.7%
B26	4.93% and -0.626%	6.99% and 5.37%	52.9% and 36.5%
B27	3.97% and 0%	4.58% and 9.11%	28.7% and 16.9%
B28	-0.345% and 2.43%	20.7% and 6.29%	50.1% and 35.6%
B29	6.2% and 0.626%	11% and 8.79%	32.2% and 20%

Target: SARS-CoV-2 S deleted of the C-terminal 27 a.a. and fused to the NRVRQGYS sequence of HIV-1 (pCMV-SAR (SARS-CoV-2), P0DTC2)
Assay: cell-based or functional assay

Binder	Pseudovirus neutralization % inhibition, 5 nM VHH, replicate 1	Pseudovirus neutralization % inhibition, 5 nM VHH, replicate 2	Pseudovirus neutralization % inhibition, 50 nM VHH, replicate 1	Pseudovirus neutralization % inhibition, 50 nM VHH, replicate 2	Pseudovirus neutralization % inhibition, 500 nM VHH, replicate 1	Pseudovirus neutralization % inhibition, 500 nM VHH, replicate 2
B30	8.71%	3.62%	10.7%	3.97%	12.9%	5.23%
B31	12.7%	3.93%	11.6%	5.99%	14%	8.56%
